Patent publication US6906198B1, “Antipicornaviral compounds, their preparation and use” (Agouron Pharmaceuticals, Inc., priority 1998, dated 2005)

Tests used:
[1] = test system: Coxsackievirus type A-21 (CAV-21); experiment: Anticoxsackieviral cell culture assay (XTT), CAV-21; type: cell-based; conditions: therapeutic index CC50/EC50, CAV-21
Method: Anticoxsackieviral Cell Culture Assay
Coxsackievirus types A-21 (CAV-21) and B3 (CVB-3) were purchased from American Type Culture Collection (ATCC, Rockville, Md.). Virus stocks were propagated and antiviral assays were performed in H1-HeLa cells (ATCC). Cells were grown in minimal essential medium with 10% fetal bovine serum (Life Technologies, Gaithersburg, Md.).
The ability of compounds to protect cells against either CAV-21 or CVB-3 infection was measured by the XTT dye reduction method. This method is described in Weislow et al., J. Natl. Cancer Inst. 1989, vol. 81, 577-586. H1-HeLa cells were infected with CAV-21 or CVB-3 at a multiplicity of infection (m.o.i.) of 0.025 or 0.075, respectively, or mock-infected with medium only. H1-HeLa cells were plated at 4×10^4 cells per well in a 96-well plate and incubated with appropriate concentrations of the test compound. One day (CVB-3) or two days (CAV-21) later, XTT/PMS was added to test plates and the amount of formazan produced was quantified spectrophotometrically at 450/650 nm. The EC50 was calculated as the concentration of compound that increased the formazan production in compound-treated, virus-infected cells to 50% of that produced by compound-free, uninfected cells. The 50% cytotoxic dose (CC50) was calculated as the concentration of compound that decreased formazan production in compound-treated, uninfected cells to 50% of that produced in compound-free, uninfected cells. The therapeutic index (TI) was calculated by dividing the CC50 by the EC50.
The compounds were tested against control compounds WIN 54954 (obtained from Sterling-Winthrop Pharmaceuticals), Pirodavir (obtained from Janssen Pharmaceuticals), and Pleconaril (prepared according to Diana et al., J. Med. Chem. 1995, 38, 1355).

HRV serotype 9 = experiment: Antirhinoviral H1-HeLa cell culture assay (XTT), HRV-9; type: cell-based, human rhinovirus; conditions: therapeutic index CC50/EC50, HRV (9)
Method: (§1) Antirhinoviral H1-HeLa Cell Culture Assay
(§2) In this cell protection assay, the ability of compounds to protect cells against HRV infection was measured by the XTT dye reduction method, which is described in Weislow et al., J. Natl. Cancer Inst. 1989, vol. 81, 577-586.
(§3) H1-HeLa cells were infected with HRV-14 at a multiplicity of infection (m.o.i.) of 0.13 (virus particles/cell) or mock-infected with medium only. Infected or mock-infected cells were resuspended at 8×10^5 cells per mL, and incubated with appropriate concentrations of the compounds to be tested. Two days later, XTT/PMS was added to test plates and the amount of formazan produced was quantified spectrophotometrically at 450/650 nm. The EC50 value was calculated as the concentration of compound that increased the percentage of formazan production in compound-treated, virus-infected cells to 50% of that produced by compound-free, mock-infected cells. The 50% cytotoxic dose (CC50) was calculated as the concentration of compound that decreased the percentage of formazan produced in compound-treated, mock-infected cells to 50% of that produced by compound-free, mock-infected cells. The therapeutic index (TI) was calculated by dividing the CC50 value by the EC50 value.
(§4) All strains of human rhinovirus (HRV) for use in this assay were purchased from American Type Culture Collection (ATCC), except for HRV serotype-14 (produced from the infectious cDNA clone constructed by Dr. Robert Rueckert, Institute for Molecular Virology, University of Wisconsin, Madison, Wis.). HRV stocks were propagated and viral assays were performed in H1-HeLa cells (ATCC). Cells were grown in minimal essential medium with 10% fetal bovine serum, available from Life Technologies (Gaithersburg, Md.).
(§5) The compounds were tested against control compounds WIN 51711, WIN 52084, and WIN 54954 (obtained from Sterling-Winthrop Pharmaceuticals), Pirodavir (obtained from Janssen Pharmaceuticals), and Pleconaril (prepared according to the method described in Diana et al., J. Med. Chem 1995, vol. 38, 1355). […]

HRV serotype 2 = experiment: Antirhinoviral H1-HeLa cell culture assay (XTT), HRV-2; type: cell-based, human rhinovirus; conditions: therapeutic index CC50/EC50, HRV (2)
Method: as §1, §2, §3, §4
(§6) The compounds were tested against control compounds WIN 51711, WIN 52084, and WIN 54954 (obtained from Sterling-Winthrop Pharmaceuticals), Pirodavir (obtained from Janssen Pharmaceuticals), and Pleconaril (prepared according to the method described in Diana et al., J. Med. Chem 1995, vol. 38, 1355). Antiviral data obtained for the test compounds are shown in Tables 1 and 3, where all data are for HRV serotype-14 unless otherwise noted in parentheses.

[2] = test system: Echovirus type 11 (EV 11); experiment: Anti-echoviral cell culture assay (XTT), EV 11; type: cell-based; conditions: therapeutic index CC50/EC50, EV-11
Method: Anti-Echoviral and -Enteroviral Cell Culture Assays
Echovirus type 11 (EV 11) and enterovirus type 70 (EV 70) were purchased from ATCC (Rockville, Md.). Virus stocks were propagated and antiviral assays were performed in MRC-5 cells (ATCC). Cells were grown in minimal essential medium with 10% fetal bovine serum (Life Technologies, Gaithersburg, Md.).
The ability of compounds to protect cells against either EV 11 or EV 70 infection was measured by the XTT dye reduction method (Weislow et al., J. Natl. Cancer Inst. 1989, vol. 81, 577-586). MRC-5 cells were infected with EV 11 or EV 70 at an m.o.i. of 0.003 or 0.004, respectively, or mock-infected with medium only. Infected or uninfected cells were added at 1×10^4 cells per well and incubated with appropriate concentrations of compound. Four days later, XTT/PMS was added to test plates, and the amount of formazan produced was quantified spectrophotometrically at 450/650 nm. The EC50 was calculated as the concentration of compound that increased the formazan production in compound-treated, virus-infected cells to 50% of that produced by compound-free, uninfected cells. The 50% cytotoxic dose (CC50) was calculated as the concentration of compound that decreased formazan production in compound-treated, uninfected cells to 50% of that produced in compound-free, uninfected cells. The therapeutic index (TI) was calculated by dividing the CC50 by the EC50.
The compounds were tested against control compounds Pirodavir (obtained from Janssen Pharmaceuticals) and Pleconaril (prepared according to Diana et al., J. Med. Chem. 1995, vol. 38, 1355). Antiviral data obtained for the test compounds against strain EV 11 and EV 70 are shown below in Table 5.

HRV serotype 87 = experiment: Antirhinoviral H1-HeLa cell culture assay (XTT), HRV-87; type: cell-based, human rhinovirus; conditions: therapeutic index CC50/EC50, HRV (87)
Method: as §1, §2, §3, §4, §5

HRV serotype 30 = experiment: Antirhinoviral H1-HeLa cell culture assay (XTT), HRV-30; type: cell-based, human rhinovirus; conditions: therapeutic index CC50/EC50, HRV (30)
Method: as §1, §2, §3, §4, §6

HRV serotype 13 = experiment: Antirhinoviral H1-HeLa cell culture assay (XTT), HRV-13; type: cell-based, human rhinovirus; conditions: therapeutic index CC50/EC50, HRV (13)
Method: as §1, §2, §3, §4, §6

HRV serotype 25 = experiment: Antirhinoviral H1-HeLa cell culture assay (XTT), HRV-25; type: cell-based, human rhinovirus; conditions: therapeutic index CC50/EC50, HRV (25)
Method: as §1, §2, §3, §4, §5

HRV serotype 1A = experiment: Antirhinoviral H1-HeLa cell culture assay (XTT), HRV-1A; type: cell-based, human rhinovirus; conditions: therapeutic index CC50/EC50, HRV (1A)
Method: as §1, §2, §3, §4, §6

CCOC(=O)/C=C/[C@H](C[C@@H]1CCNC1=O)NC(=O)[C@@H](CC(=O)[C@@H](NC(=O)c1cc(C)on1)C(C)C)Cc1ccc(F)cc1 [(B-2), Ethyl-3-{(5′-Methylisoxazole-3′-carbonyl)-L-ValΨ(COCH2)-L-(4-F-Phe)-L-((S)-Pyrrol-Ala)}-E-Propenoate]
TI [1]: >625 | TI (HRV serotype 9): >16666 | TI (HRV serotype 2): >5000 | TI [2]: >10000 | TI (HRV serotype 87): >1666 | TI (HRV serotype 30): >2500 | TI (HRV serotype 13): >10000 | TI (HRV serotype 25): >3333 | TI (HRV serotype 1A): >5000
